Measurements from PMC3305447, “A Peptidoglycan Fragment Triggers β-lactam Resistance in Bacillus licheniformis” (PLoS Pathogens, 2012).

Molecular target: T1, MecI (Staphylococcus aureus ATCC 43300) (UniProt P68261)
T1 sequence (looked up, limits assumed): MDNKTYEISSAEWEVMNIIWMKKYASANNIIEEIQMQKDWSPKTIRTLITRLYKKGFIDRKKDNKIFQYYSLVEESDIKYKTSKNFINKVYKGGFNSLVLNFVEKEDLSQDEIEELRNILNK
Assay: EMSA
Conditions: no coactivator; 0.5 uM Cy5-OP1 + 13.5 uM repressor (ALF sequencer) or 2.5 uM DNA + 50 uM repressor (1% agarose); recombinant protein; protein details: C-terminal His6; label: 5'-Cy5 on printed strand

GCATTTAAATCTTACATATGTAATACTTTC (double strand) [OP1 operator]
binding result: binds

For at least one entry, the source does not settle the construct or the ends of the probe. At least one verdict rests on a figure or table, not on a statement of the authors. Tags and fusion partners may be left off the protein sequences shown.
